From patent US20040146520A1, “Materials and methods relating to immune suppression” (priority 2001, published 2004)

Test system: Flu-specific (MP58-66) CTL
Assay: CTL apoptosis induced by peptide/MHC multimeric beads
Assay type: cell-based, human
Details: IL-2 20 U/ml, anti-CD28 1 μg/ml, z-VAD 10 μM; 12 hrs

IL-2: cytokine IL-2
effect of added reagent on multimer-induced CTL death: small increase in CTL death
